Measurements as given in patent US20070009537A1, “Antimicrobial activity of antibodies producing reactive oxygen species” (priority 2002, published 2007).

Assay: Oxidation of indigo carmine 1 and 18O incorporation into cyclic α-ketoamide 2 by reactive oxygen species
Conditions: for Reaction to form 2: indigo carmine 1 (1 mM) in PB pH 7.4, room temperature, oxidant conditions per footnotes

| SMILES | Reaction to form 2 | 18O incorporation into 2 (PB 100 mM pH 7.4 with H2 18O (>95%), negative ion ESI-MS) |
| --- | --- | --- |
| OO [Clone H2O2, hydrogen peroxide] | No |  |
| OCl [HOC1, Hypochlorous acid] | No |  |
| O=O [^1O2*, singlet oxygen] | Yes | no |
